Anti-infective test results gathered from many reports (values: NIAID ChemDB through PubChem).

Common to all: growth or infection tests; agent: Mycobacterium avium intracellulare

Inhibition is in % at the dose shown (toxicity tests: loss of growth or viability). Neighbouring rows are from separate reports. MIC50, MIC90 and the like: level of inhibition, or share of isolates inhibited. An empty or dashed field is not shown.

structure	dose	measure	strain	value
COc1c(N2C[C@@H]3CCCN[C@@H]3C2)c(F)cc2c(=O)c(C(=O)O)cn(C3CC3)c12		MIC		0.7 µg/mL
CO[C@H]1[C@@H](O)[C@H](n2ccc(=O)[nH]c2=O)O[C@@H]1[C@@H](O[C@H]1OC(C(=O)N[C@H]2CCC[C@@H](C)NC2=O)=C[C@H](O)[C@@H]1O)C(N)=O		MIC50	17 isolates	2 µg/mL
CCn1cc(C(=O)O)c(=O)c2cc(F)c(N3CCNCC3)cc21		MIC50	7 isolates	>16 µg/mL
CCC(C)N1CCN(c2cc(=O)c3nc4c(oc3c2)c2c(=O)c3c(O)c(C)c5c(c34)=C(O)[C@@](C)(O/C=C/[C@H](OC)[C@@H](C)[C@@H](OC(C)=O)[C@H](C)[C@H](O)[C@H](C)[C@@H](O)[C@@H](C)/C=C/C=C(/C)C(=O)N2)O5)CC1		MIC50	31 strains	0.1 µg/mL
CC[C@H]1OC(=O)[C@H](C)[C@@H](O[C@H]2C[C@@](C)(OC)[C@@H](O)[C@H](C)O2)[C@H](C)[C@@H](O[C@@H]2O[C@H](C)C[C@H](N(C)C)[C@H]2O)[C@](C)(OC)C[C@@H](C)C(=O)[C@H](C)[C@@H](O)[C@]1(C)O		MIC90	20 strains	12.5 µg/mL
CO[C@H]1/C=C/O[C@@]2(C)Oc3c(C)c(O)c4c(O)c(c5c(c4c3C2=O)NC2(CCN(CC(C)C)CC2)N=5)=NC(=O)/C(C)=C\C=C\[C@H](C)[C@H](O)[C@@H](C)[C@@H](O)[C@@H](C)[C@H](OC(C)=O)[C@@H]1C		MIC50	10 isolates	0.125 µg/mL
COc1c(N2CCNC(C)C2)c(F)cc2c(=O)c(C(=O)O)cn(C3CC3)c12		MIC		0.8 µg/mL
CCn1cc(C(=O)O)c(=O)c2cc(F)c(N3CCNCC3)nc21		MIC90	16 isolates	>100 µg/mL
CO[C@H]1/C=C/O[C@@]2(C)Oc3c(C)c(O)c4c(O)c(c(/C=N/N5CCN(C)CC5)c(O)c4c3C2=O)NC(=O)/C(C)=C\C=C\[C@H](C)[C@H](O)[C@@H](C)[C@@H](O)[C@@H](C)[C@H](OC(C)=O)[C@@H]1C		MIC	CIPT 140310001	0.1 µg/mL
Nc1nc(-n2cc(C(=O)O)c(=O)c3cc(F)c(N4CC(O)C4)c(Cl)c32)c(F)cc1F		MIC50	20 strains	25 µg/mL
NCC[C@H](O)C(=O)N[C@@H]1C[C@H](N)[C@@H](O[C@H]2O[C@H](CN)[C@@H](O)[C@H](O)[C@H]2O)[C@H](O)[C@H]1O[C@H]1O[C@H](CO)[C@@H](O)[C@H](N)[C@H]1O		MBC		16 µg/mL
NNC(=O)c1ccncc1		MIC90	17 isolates	16 µg/mL
CC[C@H](C)N1CCN(c2cc(=O)c3nc4c(oc3c2)c2c(=O)c3c(O)c(C)c5c(c34)=C(O)[C@@](C)(O/C=C/[C@H](OC)[C@@H](C)[C@@H](OC(C)=O)[C@H](C)[C@H](O)[C@H](C)[C@@H](O)[C@@H](C)/C=C/C=C(/C)C(=O)N2)O5)CC1		MIC50	31 strains	0.1 µg/mL
CC1COc2c(N3CCN(C)CC3)c(F)cc3c(=O)c(C(=O)O)cn1c23		MIC90	16 isolates	100 µg/mL
CO[C@H]1/C=C/O[C@@]2(C)Oc3c(C)c(O)c4c(O)c(c(/C=N/N5CCN(C)CC5)c(O)c4c3C2=O)NC(=O)/C(C)=C\C=C\[C@H](C)[C@H](O)[C@@H](C)[C@@H](O)[C@@H](C)[C@H](OC(C)=O)[C@@H]1C	1.25 µg/mL	inhibition	Serovar 8	52%
C[C@@H]1CN(c2c(F)c(N)c3c(=O)c(C(=O)O)cn(C4CC4)c3c2F)C[C@H](C)N1		MIC50	16 isolates	6.25 µg/mL
C[C@H]1COc2c(N3CCN(C)CC3)c(F)cc3c(=O)c(C(=O)O)cn1c23		MIC90	20 strains	25 µg/mL
CO[C@H]1/C=C/O[C@@]2(C)Oc3c(C)c(O)c4c(O)c(c(/C=N/N5CCN(C)CC5)c(O)c4c3C2=O)NC(=O)/C(C)=C\C=C\[C@H](C)[C@H](O)[C@@H](C)[C@@H](O)[C@@H](C)[C@H](OC(C)=O)[C@@H]1C		MIC50	17 isolates	0.06 µg/mL
NC[C@H]1O[C@H](O[C@H]2[C@H](O)[C@@H](O[C@H]3O[C@H](CO)[C@@H](O)[C@H](N)[C@H]3O)[C@H](N)C[C@@H]2N)[C@H](O)[C@@H](O)[C@@H]1O		MIC	N-897 (HIV-)	2 µg/mL
CCn1cc(C(=O)O)c(=O)c2cc(F)c(N3CCNCC3)cc21		MIC		24.5 µg/mL
NNC(=O)c1ccncc1		MBC		16 µg/mL
CCn1cc(C(=O)O)c(=O)c2cc(F)c(-n3cccc3)cc21		MIC		89.1 µg/mL
NNC(=O)c1ccncc1		MIC90	20 strains	100 µg/mL
CN[C@@H]1[C@H](O[C@H]2[C@H](O[C@H]3[C@H](O)[C@@H](O)[C@H](N=C(N)N)[C@@H](O)[C@@H]3N=C(N)N)O[C@@H](C)[C@]2(O)C=O)O[C@@H](CO)[C@H](O)[C@H]1O		MBC		8 µg/mL
NC1CCN(c2c(F)cc3c(=O)c(C(=O)O)cn(C4CC4)c3c2Cl)C1		MIC		3.1 µg/mL
CO[C@H]1/C=C/O[C@@]2(C)Oc3c(C)c(O)c4c(O)c(c5c(c4c3C2=O)NC2(CCN(CC(C)C)CC2)N=5)=NC(=O)/C(C)=C\C=C\[C@H](C)[C@H](O)[C@@H](C)[C@@H](O)[C@@H](C)[C@H](O)[C@@H]1C		MIC	CDC2	0.075 µg/mL
CN1CCN(c2c(F)cc3c(=O)c(C(=O)O)cn4c3c2SCC4)CC1		MIC		11.9 µg/mL
CCn1cc(C(=O)O)c(=O)c2cc(F)c(N3CCNC(C)C3)c(F)c21		MIC90	16 isolates	100 µg/mL
CC1CN(c2cc3c(cc2F)c(=O)c(C(=O)O)cn3-c2ccc(F)cc2F)CCN1		MIC		1 µg/mL
NC1CCN(c2nc3c(cc2F)c(=O)c(C(=O)O)cn3-c2ccc(F)cc2F)C1		MIC90	16 isolates	>100 µg/mL
CC[C@@H](CO)NCCN[C@@H](CC)CO		MBC		>32 µg/mL
CCn1cc(C(=O)O)c(=O)c2cnc(N3CCNCC3)nc21		MIC		>250 µg/mL

Repeating the final 4 entries:

{"structure": "CC1CN(c2cc3c(cc2F)c(=O)c(C(=O)O)cn3-c2ccc(F)cc2F)CCN1", "measure": "MIC", "value": "1 µg/mL"}
{"structure": "NC1CCN(c2nc3c(cc2F)c(=O)c(C(=O)O)cn3-c2ccc(F)cc2F)C1", "measure": "MIC90", "strain": "16 isolates", "value": ">100 µg/mL"}
{"structure": "CC[C@@H](CO)NCCN[C@@H](CC)CO", "measure": "MBC", "value": ">32 µg/mL"}
{"structure": "CCn1cc(C(=O)O)c(=O)c2cnc(N3CCNCC3)nc21", "measure": "MIC", "value": ">250 µg/mL"}